Laboratory results: patent US20140323691A1 (UAB RESEARCH FOUNDATION, published 2014)
Changes are numbered by the printed parent chain.

T1: BxpB mutant 13M (all 13 acidic residues changed to alanines) (Bacillus anthracis)
T1 chain: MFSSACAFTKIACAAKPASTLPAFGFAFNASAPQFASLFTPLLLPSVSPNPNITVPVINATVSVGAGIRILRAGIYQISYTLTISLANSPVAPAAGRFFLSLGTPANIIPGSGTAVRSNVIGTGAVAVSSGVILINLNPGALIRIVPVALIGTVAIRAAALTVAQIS

T2: BxpB mutant 10M (all acidic residues except D5, D12 and E14 changed to alanines) (Bacillus anthracis)
T2 chain: T1 chain with A5D, A12D, A14E

T3: BxpB mutant 10M+D127 (Bacillus anthracis)
T3 chain: T1 chain with A5D, A12D, A14E, A127D

T4: BxpB mutant 10M+E125 (Bacillus anthracis)
T4 chain: T1 chain with A5D, A12D, A14E, A125E

T5: CotE (Bacillus anthracis)
T5 chain: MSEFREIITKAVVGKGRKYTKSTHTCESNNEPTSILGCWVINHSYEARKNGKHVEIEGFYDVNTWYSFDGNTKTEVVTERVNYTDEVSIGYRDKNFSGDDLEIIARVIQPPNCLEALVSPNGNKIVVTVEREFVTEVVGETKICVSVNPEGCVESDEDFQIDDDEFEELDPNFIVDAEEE

T6: BxpB (exosporium basal layer protein) (Bacillus anthracis)
T6 chain: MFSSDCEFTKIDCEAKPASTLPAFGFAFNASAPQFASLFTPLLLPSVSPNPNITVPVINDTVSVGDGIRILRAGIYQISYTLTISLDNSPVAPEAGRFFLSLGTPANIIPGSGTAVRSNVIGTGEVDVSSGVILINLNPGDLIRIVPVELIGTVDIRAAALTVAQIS

B1: BclA (collagen-like glycoprotein of the Bacillus anthracis exosporium nap) (other)
chain: AFDPNLVGPTLPPIPPFTLPTGPTGPTGPTGPTGPTGPTGPTGPTGPTGPTGPTGPTGPTGDTGTTGPTGPTGPTGPTGPTGDTGTTGPTGPTGPTGPTGPTGPTGPTGPTGPTGPTGDTGTTGPTGPTGPTGPTGPTGDTGTTGPTGPTGPTGPTGPTGPTGPTGPTGPTGPTGPTGPTGPTGDTGTTGPTGPTGPTGPTGPTGDTGTTGPTGPTGPTGPTGPTGPTGPTGATGLTGPTGPTGPSGLGLPAGLYAFNSGGISLDLGINDPVPFNTVGSQFGTAISQLDADTFVISETGFYKITVIANTATASVLGGLTIQVNGVPVPGTGSSLISLGAPIVIQAITQITTTPSLVEVIVTGLGLSLALGTSASIIIEKVA
B2: CotY (other)
chain: SCNCNEDHHHHDCDFNCVSNVVRFIHELQECATTTCGSGCEVPFLGAHNSASVANTRPFILYTKAGAPFEAFAPSANLTSCRSPIFRVESIDDDDCAVLRVLSVVLGDTSPVPPTDDPICTFLAVPNARLISTNTCLTVDLSCFCAIQCLRDVTI
B3: ExsY (other)
chain: SCNENKHHGSSHCVVDVVKFINELQDCSTTTCGSGCEIPFLGAHNTASVANTRPFILYTKAGAPFEAFAPSANLTSCRSPIFRVESVDDDSCAVLRVLSVVLGDSSPVPPTDDPICTFLAVPNARLVSTSTCITVDLSCFCAIQCLRDVTI
B4: ExsB (other)
chain: EDFLHQDPSTFDCDDDCTTKIECSDDCNCPRTRCTRVKHCTFVTKCTHVKKWTFVTKCTRVRVQKWTFVTKVTRRKECVLVTKRTRRKHCTFVTKCVRFEKKFYWTKRCYCKKCEFFPHGHGGSCDDSCDHGKDCHDDGHKWNDCKGGHKFPSCKNKKFDHFWYKKRNC

How the values were obtained:
[1] = biological target: T1, BxpB mutant 13M (all 13 acidic residues …); assay: anti-BclA immunoblot of >250-kDa complexes formed during sporulation
[2] = biological target: T2, BxpB mutant 10M (all acidic residues …); assay: as above
BxpB mutant 10M+D127 = biological target: T3, BxpB mutant 10M+D127; assay: anti-BclA immunoblot of >250-kDa complexes (attachment at residue D127)
BxpB mutant 10M+E125 = biological target: T4, BxpB mutant 10M+E125; assay: anti-BclA immunoblot of >250-kDa complexes (attachment at residue E125)
ExsY [3] = biological target: B3; assay: LC-MS/MS search for branched peptides in >250-kDa exosporium complexes (in vivo)
CotY [4] = biological target: B2; assay: as above
CotE = biological target: T5, CotE; assay: as above
ExsY [5] = biological target: B3; assay: isopeptide bonds formed in vivo, LC-MS/MS
[6] = biological target: the molecule itself; assay: isopeptide bonds formed in vivo, LC-MS/MS
CotY [7] = biological target: B2; assay: isopeptide bonds formed in vivo, LC-MS/MS
[8] = biological target: T6, BxpB (exosporium basal layer protein); assay: LC-MS/MS search for branched peptides in >250-kDa exosporium complexes (in vivo)

B1
binding result [1]: no binding
binding result [2]: no binding
level of attachment relative to wild-type BxpB (BxpB mutant 10M+D127): ~0.33 fraction of wild-type BxpB level
level of attachment relative to wild-type BxpB (BxpB mutant 10M+E125): ~0.33 fraction of wild-type BxpB level
binding result (ExsY [3]): no binding
binding result (CotY [4]): no binding
binding result (CotE): no binding

B2
binding result (ExsY [5]): binds
binding result [6]: binds

B3
binding result (CotY [7]): binds
binding result [6]: binds

B4
binding result [8]: no binding
